Results as given in ChEMBL document CHEMBL4359835, “Design, Synthesis, and Anti-RNA Virus Activity of 6'-Fluorinated-Aristeromycin Analogues” (J Med Chem, 2019).

Columns and labels:
[1] = Cytotoxicity against African green monkey Vero E6 cells assessed as reduction in cell viability measured after 72 hrs by MTS assay; format: cell-based; conditions: chlorocebus sabaeus, Vero E6 cells (Vero C1008)
How it was run: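 Uninfected Vero E6 cells (10 000/well) were exposed to compound for 72 h, in parallel with SARS-CoV CPE assays. Read-out was MTS reagent for 2–2.5 h, then formaldehyde fixation and absorbance at 495 nm relative to untreated cells. Eight concentrations in quadruplicate; CC50 by nonlinear regression.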

Vero = assay: Cytotoxicity against African green monkey Vero cells assessed as reduction in cell viability measured after 96 hrs by MTS assay; format: cell-based; conditions: chlorocebus sabaeus
How it was run: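 Uninfected Vero CCL81 cells (5000/well) were treated for 96 h in parallel with ZIKV CPE assays. MTS absorbance at 495 nm was read after 2–2.5 h and fixation, expressed relative to untreated cells. Eight concentrations, quadruplicate; CC50 by nonlinear regression.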

Compound: Nc1ncnc2c1ncn2[C@H]1[C@H](O)[C@H](O)[C@@H](CO)[C@@H]1F
- CC50 at 72 h [1]: 1.32 to 3.97 µM
- CC50 (Vero): 3.97 µM
